PubChem BioAssay AID504761, Drosophila RNAi Screening Center, 2011

Test: 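Insect host genes that dengue virus relies on to spread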 (primary screen)
System: D.Mel-2 cells from Drosophila
Reagent: long dsRNA against Drosophila genes
Treatment: infection with dengue virus type 2; dose and infection time not stated
Read-out: 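Per well on two replicate plates, imaging gave the percent of cells positive for viral envelope protein, ranked by infection, and a nuclear count of cells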
Reading the numbers: infection score: higher = more virus-infected cells
Call rule: 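Low infection ranks in the two replicates (chance level up to 0.065) followed by a retest with a 1.5-fold or larger significant decrease, p below 0.05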
Meaning of the calls: active = confirmed: knock-down lowers infection; inactive = not picked or not confirmed
In all, the deposit lists about 22,000 reagents; below is a random part of those that have a named target and a result. In the full data, 116 (0.52%) are marked active. 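Calls depend on retest data that are not deposited; infection was ranked per plate without normalising between plates; the unit of the infection score is not given.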 Reagents against one gene are numbered here. Names joined by + are all predicted targets of the reagent. Further read-outs or replicates are left out here. Not given: the amount of reagent, the time to read-out.

For CG30356 the deposit lists infection score, replicate 1 = 2.63; inactive.
With knock-down of CG4960 #1, the screen gave infection score, replicate 1 = 4.98; inactive.
With knock-down of CG4960 #2 the results were infection score, replicate 1 = 8.8; inactive.
Depletion of CG12448 came out at: infection score, replicate 1 = 4.59; inactive.
Ir41a (Ionotropic receptor 41a) #1 gave infection score, replicate 1 = 0.92; inactive.
With knock-down of Ir41a (Ionotropic receptor 41a) #2, the record shows infection score, replicate 1 = 19.2; inactive.
Against GILT1 (Gamma-interferon-inducible lysosomal thiol reductase 1), the entry reads infection score, replicate 1 = 9.85; inactive.
CG15202 scored infection score, replicate 1 = 7.11; inactive.
CG12935 + Nop10 gave infection score, replicate 1 = 7.64; inactive.
After knock-down of CG7330 #1 the results were infection score, replicate 1 = 6.39; inactive.
CG7330 #2 gave infection score, replicate 1 = 6.1; inactive.
Knock-down of sowah (sosondowah) #1 resulted in: infection score, replicate 1 = 0.48; inactive.
Against sowah (sosondowah) #2, the entry reads infection score, replicate 1 = 18.2; inactive.
With knock-down of nsl1 (non-specific lethal 1), the record shows infection score, replicate 1 = 7.67; inactive.
Knock-down of betaTry (betaTrypsin) #1 gave: infection score, replicate 1 = 1.81; inactive.
Depletion of betaTry (betaTrypsin) #2 gave: infection score, replicate 1 = 5.17; inactive.
betaTry (betaTrypsin) #3 showed infection score, replicate 1 = 1.62; inactive.
With knock-down of CG3337 the results were infection score, replicate 1 = 1.39; inactive.
Dh44 (Diuretic hormone 44) #1 showed infection score, replicate 1 = 1.58; inactive.
Dh44 (Diuretic hormone 44) #2 scored infection score, replicate 1 = 3.66; inactive.
With knock-down of sofe, the screen gave infection score, replicate 1 = 8.81; inactive.

Already shown: an excerpt of the list.
CG15202 — infection score, replicate 1: 7.11; Call: inactive
CG12935 + Nop10 — infection score, replicate 1: 7.64; Call: inactive
